Data source: PubChem BioAssay AID504761 (Drosophila RNAi Screening Center, 2011)

Assay: 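Insect host genes that dengue virus relies on to spread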 (primary screen)
Cell system: D.Mel-2 cells from Drosophila
Reagents: long dsRNA against Drosophila genes
Challenge: infection with dengue virus type 2; dose and infection time not stated
Measured: 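Per well on two replicate plates, imaging gave the percent of cells positive for viral envelope protein, ranked by infection, and a nuclear count of cells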
Scale: infection score: higher = more virus-infected cells; cell count: higher = more cells in the well
Rule for the call: 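Very low infection ranking in both replicate wells (chance probability at most 0.065), then a retest showing infection dropped 1.5-fold or more at p below 0.05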
Calls: active = confirmed: knock-down lowers infection; inactive = not picked or not confirmed
The deposit covers about 22,000 reagents; this is an unselected part of those with a known target gene and a result. Of all reagents, 116 (0.52%) were called active. 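Calls depend on retest data that are not deposited; infection was ranked per plate without normalising between plates; the unit of the infection score is not given.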 The raw values are shown without normalisation. A number with no mark means an inactive call. The numbers tell different reagents against one gene apart. A plus sign joins genes that one reagent is predicted to hit. The record does not give: the amount of reagent, the time to read-out.

no.	Target gene	reagent no.	infection score, replicate 1	infection score, replicate 2	cell count, replicate 1	cell count, replicate 2
1	CG30094	1	4.1	22.2	6439	5359
2	CG30094	2	2.62	10.5	6594	6362
3	CG4887	1	13.2	1.23	6310	6605
4	CG4887	2	4.07	8	5672	5926
5	CG4887	3	4	3.39	6378	6130
6	nkt (noktochor)	1	9.64	6.86	4200	6416
7	Sdr (Secreted decoy of InR)	1	4.13	8.33	7261	4802
8	Cpr11A (Cuticular protein 11A)	1	1.64	2.13	6515	7269
9	Cpr11A (Cuticular protein 11A)	2	3.48	5.99	6378	6544
10	CheB38c (Chemosensory protein B 38c)	1	2.48	16.3	6817	4715
11	Atg12 (Autophagy-related 12)	1	2.3	2.89	6447	6262
12	sncRNA:430e + His2A:CG33859 + His2A:CG33817 + 42 more	1	11.5	6.57	1954	2693
13	CG10337	1	16.8	3.1	4793	6346
14	Eip63E (Ecdysone-induced protein 63E)	1	17.4	1.2	4966	585
15	CG16713	1	3.13	1.8	6846	6818
16	CG8289	1	2.54	1.75	6579	6956
17	CG8289	2	18.7	7.9	6107	6023
18	rempA (reduced mechanoreceptor potential A)	1	20.9	11	4135	6730
19	CG2993	1	3.63	22.5	6343	4844
20	CG2993	2	4.3	4.3	6586	6300
21	CG2993	3	11.5	7.35	6525	6262
22	CG33288	1	3.39	0.91	6171	6510
23	CG3702	1	1.29	5.1	6255	5806
24	CG15136	1	1.52	3.77	6691	6740
25	CG4025	1	2.55	15.7	6306	5880
26	Hexo2 (Hexosaminidase 2)	1	36.8	15.7	5962	2152
27	SMC5 (Structural maintenance of chromosomes 5)	1	6.05	9.36	6492	6264
28	CG2291	1	5.7	13.3	6685	3235
29	CG8888	1	17.3	8.77	5611	5860
30	CG8888	2	8.26	11.7	5680	6766
31	Golgin104 (Golgin 104)	1	5.93	17.4	6575	3515
32	Golgin104 (Golgin 104)	2	3.38	2.63	6413	6607
33	CG13494	1	4.24	5.93	6433	6778
34	CG13494	2	3.59	3.38	5929	5777

3 entries already listed, sorted by “infection score, replicate 2”, low to high.
Target gene	reagent no.	infection score, replicate 1	infection score, replicate 2	cell count, replicate 1	cell count, replicate 2
CG4887	1	13.2	1.23	6310	6605
CG4887	2	4.07	8	5672	5926
CG30094	2	2.62	10.5	6594	6362

Further results:
no.	Target gene	reagent no.	infection score, replicate 1	infection score, replicate 2	cell count, replicate 1	cell count, replicate 2
35	Ref1 (RNA and export factor binding protein 1)	1	15.1	11.9	5436	6186
36	Ref1 (RNA and export factor binding protein 1)	2	2.33	6.82	5961	6558
37	otk (off-track)	1	6.38	8.47	6894	6813
38	otk (off-track)	2	9.24	20.6	1082	5920
39	CG15754	1	0.9	1.47	6118	6544
40	CG15754	2	2.49	9.81	6665	6246
41	cmet (CENP-meta)	1		1.09	593	640
42	CG8677	1	15.2	26.4	6450	5449
43	CG8677	2	4.87	2.91	6406	6253
44	CG13386	1	3.25	3.66	6086	6610
45	CG13386	2	11.3		3441	357
46	CG15548	1	1.29	4.91	854	6950
47	CG15548	2	2.21	2.95	6192	6310
48	CG31948	1	3.77	3.34	6521	7373
49	CG30440	1	7.36	4.87	6240	5934
50	CG30440	2	1.81	8.61	6340	6422
51	CG30440	3	2.36	24.9	6491	6122
52	pps (protein partner of snf)	1	2.7	6.96	5954	6525
53	pps (protein partner of snf)	2	5.02	5.49	5423	5716
54	pps (protein partner of snf)	3	1.3	3.07	6022	5572
55	CadN2 + CG42830	1	0.97	1.26	5959	6103
56	CadN2 + CG42830	2	2.76	1.71	5910	6613
57	CadN2 + CG42830	3	11.4	0.73	4801	6974
58	Pkc98E (Protein C kinase 98E)	1	2.17	3.73	6069	6518
59	Pkc98E (Protein C kinase 98E)	2	7.61	11	4339	2385
